The supplement of paper PMC9931576
Human monoclonal antibodies against the spike receptor-binding domain (heavy:light variable regions). IC50 against pseudoviruses bearing the spike of naturally observed variants; lower = stronger; >10 µg/ml means not reached at the top dose. No active / inactive call. The stated detection limit is 0.0005 µg/ml; values near or below 0.001 µg/ml lie at the floor of the assay.

B1: BD56-1338 (protein)
chain 1: EVQLVESGGGLVQPGGSLRLSCAASGFTFSNYDMHWVRQPTGKGLEWVSTIGTYGDTYYLDSVKGRFTISRDNAKKSLYLQVNSLRAGDTAVYYCARGEFSGLISYFDLWGRGTLLTVSS
chain 2: DIQMTQSPSSLSASVGDRVTITCRASQSIGSYLNWYQHKPGIAPKVLIYGASSLQSGVPSRFSGSGSGTDFTLTISSLQPEDFATYYCQQSYVTPPVTFGGGTKVEIK
B2: BD56-1382 (protein)
chain 1: EVQLVESGGNLVQPGRSLRLSCAASGFTFDNYAMHWVRQAPGKGLEWVSGISWNSGTIVYADSVKGRFTISRDNAKHSLYLQMNSLRAEDTALYYCAKAQAEKYGYYYYGMDVWGQGTTVTVSS
chain 2: QSVLTQPPSVSGAPGQRVTISCTGGSSNIGTDYDVHWYQQLPGTAPKLLIYGNSNRPSGVPDRFSGSQSGTSASLAITGLQAEDEADYYCQSYDSSLSGWVFGGGTKLTVL
B3: BD56-1391 (protein)
chain 1: QVQLVESGGTVVHPGRSLRLSCAASGFTFSRYSMHWVRQAPGRGLEWMALISYDGNITYYADSMKGRFTISRDNSKNTLHLQMNSLRSEDTAVYFCVMGADTFDHWGQGTLVTVSS
chain 2: SYELTQPPSVSVSPGQTARITCSGDALPKQYGYWYQQKPGQAPILVIYKDNERPSGIPKRFSGSSSGTTVTLTISGVQAEDEADYYCQSADSSDTPHWVFGGGTKLTVL
B4: BD56-1340 (protein)
chain 1: QVQLQESGPGLVKPSQTLSLTCTVSGGSISNGDYYWIWIRQHPGRGLEWIAYIYYSGTTYYNPSLKSRVTISVDTSMNQFSLRLRSMTAADTAVYFCARVARGFYSDRIGSYAFDVWGRGTMVTVSS
chain 2: QSALTQPASVSGSPGQSITISCTGTSSDVGSYDLVSWYQQHPGKAPKLMIYEVIKRPSGISNRFSAAKSGNTASLTISGLQVEDEADYYCCSYVGSDWIFGGGTKLTVL
B5: BD56-1342 (protein)
chain 1: QVQLVQSGAEVKKPGASVKVSCKASGYTFSSYYIHWVRQAPGQGLEWMGIINPSGGTTRHAQRFQGRVAMTRDTSTSTVYMDLSSLTSEDTAVYYCARELVVPAAGYMDVWGKGTTVTVSS
chain 2: SYVLAQPPSVSVAPGKTARITCGGNNIGSKSVHWYQQKPGQAPVLVVYDDSDRPSGIPDRFSGSNSGNTATLTISRVEAGDAADYYCQVWDGSSDHFYVFGTGTKVTVL
B6: BD56-1343 (protein)
chain 1: QVQLVQSGAEVKKPGASVKVSCKASGYTFTAYYIHWIRQAPGQGLEWMGVINPSAGSISYAQNFQGRVTMTGDTSTSTVYMELSSLRSEDTAVYYCARDESLIPAKGWFDPWGQGTPVTVSS
chain 2: EIVLTQSPGTLSLSPGERATLSCRASQSVSKYLAWYQQKPGQAPRLLIYDASNRATGIPARFSGSGSGTDFTLTISSLEPEDFAVYYCQQRGNWPPSYTFGQGTKLEIK

What was measured:
Assay in all cases: pseudovirus neutralization IC50; higher = weaker neutralization
[1] = target: SARS-CoV-2 Omicron BA.1 spike pseudovirus
Protocol: (§1)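 Single-round VSV luciferase pseudovirus mixed with antibody dilutions for 1 h and put on Huh-7 cells for about a day; IC50 from the dose curve.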

[2] = target: SARS-CoV-2 Omicron BA.2 spike pseudovirus
Protocol: as §1

[3] = target: SARS-CoV-2 Omicron BA.2.75 spike pseudovirus
Protocol: as §1

[4] = target: SARS-CoV-2 Omicron BA.5 spike pseudovirus
Protocol: as §1

[5] = target: SARS-CoV-2 Omicron BQ.1.1 spike pseudovirus
Protocol: as §1

[6] = target: SARS-CoV-2 Omicron XBB spike pseudovirus
Protocol: as §1

[7] = target: SARS-CoV-2 early D614G spike pseudovirus
Protocol: as §1

Binder	pseudovirus neutralization IC50 [1]	pseudovirus neutralization IC50 [2]	pseudovirus neutralization IC50 [3]	pseudovirus neutralization IC50 [4]	pseudovirus neutralization IC50 [5]	pseudovirus neutralization IC50 [6]	pseudovirus neutralization IC50 [7]
B1	> 10 µg/mL	2.68 µg/mL	5.36 µg/mL	4.64 µg/mL	5.23 µg/mL	6.71 µg/mL	1.41 µg/mL
B2	0.00089 µg/mL	0.000599 µg/mL	0.504 µg/mL	0.103 µg/mL	3.85 µg/mL	> 10 µg/mL	> 10 µg/mL
B3	> 10 µg/mL	> 10 µg/mL	> 10 µg/mL	> 10 µg/mL	> 10 µg/mL	> 10 µg/mL	> 10 µg/mL
B4	> 10 µg/mL	> 10 µg/mL	> 10 µg/mL	> 10 µg/mL	> 10 µg/mL	> 10 µg/mL	> 10 µg/mL
B5	> 10 µg/mL	> 10 µg/mL	> 10 µg/mL	> 10 µg/mL	> 10 µg/mL	> 10 µg/mL	> 10 µg/mL
B6	0.24 µg/mL	0.738 µg/mL	1.63 µg/mL	0.366 µg/mL	0.42 µg/mL	0.49 µg/mL	> 10 µg/mL
